This is an account of results in patent publication US8404449B2, “Stochastic sensing through covalent interactions” (dated 2013).

In assay [1] the target is wild type αHL pore (Staphylococcus aureus, UniProt P09616). Kind of assay: single-channel electrical recording with completely wild type αHL pore. The following applies: pore contains no lumen Cys residues.
For assay [2], the system named is PSH (T117C-D8)1(RL2)6 engineered αHL pore. The conditions noted are these: 1.5 mM BAL added to 10 μM arsenical.
Assay [3] has as its system PSH pore. The assay is described as follows: interaction of MTSES, DTT and PSH, single pore current trace. The following applies: 2.5 mM trans, 50 μM DTT cis; −50 mV; pH 8.5.
Assay [4] deals with mixed disulfide 1 (DTNB/PSH complex). Kind of assay: rate of reaction of DTT with mixed disulfide 1 (Step 2), single-channel recording. The conditions noted are these: DTT trans, 50 μM DTNB cis; −50 mV; pH 8.5.
Assay [5] has as its system Cys-117 of PSH. The assay is described as follows: rate of reaction of DTNB with Cys-117 of PSH (Step 1), single-channel recording. The conditions noted are these: DTNB trans, 50 μM DTT cis; −50 mV; 2 M KCl, 30 mM MOPS, pH 8.5; n=5.

Take `O=[AsH2]c1ccc(S(=O)(=O)O)cc1`: the “coupling events with wild type pore” value in assay [1] is “not observed”.
Regarding `OCC(S)CS` (centres unmarked), in assay [2], the “effect on coupling events of 4-sulfophenylarsine oxide with PSH” value is “coupling events were eliminated”.
Turning to (2-sulfonatoethyl)methane thiosulfonate, the “interaction with PSH pore” value in assay [3] is reported as “bound to the PSH pore, thereby blocking it”.
On to `O[C@H](CS)[C@H](O)CS`, for which, in assay [4], the “k2-obs (1/τ2[DTT])” value is reported as 1.1+/−0.1×10^4 M^−1s^−1.
In the case of `O=C(O)c1cc(SSc2ccc([N+](=O)[O-])c(C(=O)O)c2)ccc1[N+](=O)[O-]`, the “k1-obs (1/τ1[DTNB])” value in assay [5] is listed as 4.9+/−0.5×10^3 M^−1s^−1.
